{"source": "PubChem BioAssay AID1259414, Drosophila RNAi Screening Center – 2018", "screen": "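Genome-wide screen for host control of endosymbiont load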 (primary screen)", "cells": "Drosophila JW18 cells infected with Wolbachia", "reagent": "long dsRNA against Drosophila genes, 0.25 µg dsRNA per well of a 384-well plate", "time to read-out": "5 days", "treatment": "cells persistently infected with Wolbachia before knock-down; no added drug", "measured": "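Automated imaging of bacterial rRNA staining divided by host cell count, reported as plate-normalised robust z-score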", "scale": "Wolbachia per cell robust z: higher = more Wolbachia per host cell than the plate typical", "rule for the call": "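Active if absolute robust z reaches 1.5 in two or more of three replicates, leaving out multi- or no-target dsRNAs, genes unexpressed in JW18 and A1 wells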", "note": "In all, the deposit lists about 24,000 reagents; shown is a random part of those with a known target gene and a result. Over the whole deposit, about 1,210 (5%) were called active. 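Inactive calls also include excluded dsRNAs with several or no targets, genes unexpressed in JW18, and well A1, regardless of score.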 A number with no mark means an inactive call."}
{"Gene": "Tsp47F", "amplicon": "DRSC07325", "Wolbachia per cell robust z, rep 1": 0.695, "Wolbachia per cell robust z, rep 2": 0.414, "Wolbachia per cell robust z, rep 3": 0.845}
{"Gene": "CG14187", "amplicon": "DRSC10186", "Wolbachia per cell robust z, rep 1": 0.00788, "Wolbachia per cell robust z, rep 2": -1.66, "Wolbachia per cell robust z, rep 3": -1.2}
{"Gene": "CG14187", "amplicon": "DRSC26776", "Wolbachia per cell robust z, rep 1": 0.158, "Wolbachia per cell robust z, rep 2": -0.193, "Wolbachia per cell robust z, rep 3": -0.377}
{"Gene": "CG31251", "amplicon": "DRSC16247", "Wolbachia per cell robust z, rep 1": -0.111, "Wolbachia per cell robust z, rep 2": 0.78, "Wolbachia per cell robust z, rep 3": 0.0205}
{"Gene": "CG13771", "amplicon": "DRSC02277", "Wolbachia per cell robust z, rep 1": 0.677, "Wolbachia per cell robust z, rep 2": 0.221, "Wolbachia per cell robust z, rep 3": 0.877}
{"Gene": "Tengl4", "amplicon": "DRSC15620", "Wolbachia per cell robust z, rep 1": 0.577, "Wolbachia per cell robust z, rep 2": -7.57, "Wolbachia per cell robust z, rep 3": -0.0798}
{"Gene": "Tie", "amplicon": "DRSC08104", "Wolbachia per cell robust z, rep 1": 0.913, "Wolbachia per cell robust z, rep 2": 0.747, "Wolbachia per cell robust z, rep 3": 1.81}
{"Gene": "Tie", "amplicon": "DRSC08702", "Wolbachia per cell robust z, rep 1": 1.18, "Wolbachia per cell robust z, rep 2": 0.604, "Wolbachia per cell robust z, rep 3": -1.69}
{"Gene": "Ir52b", "amplicon": "DRSC06263", "Wolbachia per cell robust z, rep 1": -3.12, "Wolbachia per cell robust z, rep 2": -0.297, "Wolbachia per cell robust z, rep 3": -0.418}
{"Gene": "Osi6", "amplicon": "DRSC12128", "Wolbachia per cell robust z, rep 1": -1.22, "Wolbachia per cell robust z, rep 2": -2.66, "Wolbachia per cell robust z, rep 3": -0.141}
{"Gene": "Osi6", "amplicon": "DRSC25935", "Wolbachia per cell robust z, rep 1": 0.174, "Wolbachia per cell robust z, rep 2": 0.357, "Wolbachia per cell robust z, rep 3": 0.721}
{"Gene": "Irbp18", "amplicon": "DRSC10612", "Wolbachia per cell robust z, rep 1": -0.773, "Wolbachia per cell robust z, rep 2": 0.103, "Wolbachia per cell robust z, rep 3": -1.39}
